{"source": "patent US20110142873A1", "about": "(priority 2006, published 2011)", "key": {"[1]": {"test_system": "E7-specific CD8-positive T lymphocytes", "assay": "IFN-gamma ELISPOT of splenocytes from immunized mice", "assay_type": "in vivo, C57Bl/6 mice"}, "[2]": {"test_system": "E7-expressing TC-1 tumors", "assay": "TC-1 tumor regression assay (tumor incidence at day 49)", "assay_type": "in vivo, C57BL/6 mice"}}}
{"sequence": "TCCATGACGTTCCTGATGCT", "values": [{"measurement": "augmenting the activity of HspE7 in the ELISPOT assay", "setting": "[1]; CpG oligonucleotide classes A, B, C, data not shown", "value": "highly active"}, {"measurement": "biological activity of immune stimulant administered in the absence of HspE7", "setting": "[1]; immune stimulant alone", "value": "did not display this activity"}, {"measurement": "augmenting the activity of HspE7 in the TC-1 tumor regression assay", "setting": "[2]; data not shown", "value": "highly active"}, {"measurement": "anti-tumor activity", "setting": "[2]; s.c. on day 7 to mice with established TC-1 tumors, followed to day 49", "value": "no effect on tumor growth"}]}
